Pooled drug test results. Numbers come from NIAID ChemDB, via PubChem.

Blank or dashed fields: not listed here.

structure,kind,protein,strain or isolate,tested at,endpoint,method,organism,cell line,value
O=C(NCCc1ccc2c(n1)NCCC2)Nc1ccc(Cl)nc1,toxicity,,,,CC50,,,PBMC,0.09 µM
CCC(CC)O[C@@H]1C=C(C(=O)O)C[C@H](N)[C@H]1NC(C)=O,culture,,B/LEE/40,,EC50,,Influenza B virus,MDCK,3 µM
Nc1nc(N)c2nc(Cc3ccc4ccccc4c3)c(Cc3ccc4ccccc4c3)nc2n1,target,Dihydrofolate reductase,TYPE 2,,IC50,,Cryptosporidium parvum,,>10 µM
COc1ccc(C)cc1OCCBr,toxicity,,,,CC50,,,HEK 293,>20 µM
N#CNC(=O)c1cnn2c(C3CCCCC3)c(-c3ccc(OCc4ccccc4)cc3)cnc12,target,RNA-dependent RNA polymerase,,,IC50,,Hepatitis C virus,,<1 µM
O=C1N[C@H](c2ccccc2)C(c2ccccc2)Nc2c1c(=O)n(O)c1ncccc21,toxicity,,,,CC50,,,HeLa,<100 µM
O=C(Nc1cc(S(=O)(=O)O)cc2cc(S(=O)(=O)O)cc(O)c12)c1ccccc1,culture,,,10 µg/mL,inhibition,cytopathic effect,Herpes simplex virus,Human amnion AV3 cells,33%
O=C(NCCc1ccc2c(n1)NCCC2)NCc1ccc2ccccc2c1,toxicity,,,,CC50,,,PBMC,6.2 µM
CCOC(=O)CCCCOc1ccccc1NC(C)C,toxicity,,,,CC50,,,RAJI,>20 µM
O=C(NCCc1ccc2c(n1)NCCC2)NCc1ccccc1Cl,toxicity,,,,CC50,,,PBMC,50 µM
CCCN(Cc1cccc(OCCCCCC(=O)OCC)c1)C(=O)c1ccc(-c2ccc3c(c2)OCO3)cc1,toxicity,,,,CC50,,,HEK 293,>20 µM
O=C(O)c1cc2nc(-c3ccc(OCc4ccccc4)cc3)cc(-c3cccc(F)c3)n2n1,target,RNA-dependent RNA polymerase,,,IC50,,Hepatitis C virus,,>10 µM
COc1ccc(CCNC(=O)CCO[Si](C)(C)C(C)(C)C)cc1OC,toxicity,,,,CC50,,,RAJI,<7.5 µM
Nc1cccc(S(=O)(=O)O)c1,culture,,TYPE 3,50 µg/mL,inhibition,cytopathic effect,Adenovirus,Human embryonic lung cells,0%
COc1cc(NC(=O)NCCc2ccc3c(n2)NCCC3)cc(OC)c1OC,toxicity,,,,CC50,,,PBMC,7.4 µM
NCS(=O)(=O)O,culture,,TYPE 3,5 µg/mL,inhibition,cytopathic effect,Adenovirus,Human embryonic lung cells,0%
COc1cccc(Oc2ccc(-c3nc4cc(C(=O)O)[nH]n4c(=O)c3C3CCCCC3)cc2)c1,target,RNA-dependent RNA polymerase,,,IC50,,Hepatitis C virus,,<1 µM
Nc1nc(N)c2c(CNc3cc(Cl)c(-n4cccc4)c(Cl)c3)c(Br)sc2n1,target,Dihydrofolate reductase,TYPE 1,,IC50,,Cryptosporidium parvum,,>10 µM
O=C(Nc1c(S(=O)(=O)[O-])cc2cc(S(=O)(=O)[O-])cc(O)c2c1O)c1ccccc1,culture,,TYPE 3,5 µg/mL,inhibition,cytopathic effect,Adenovirus,Human amnion AV3 cells,60%
COc1cc(CN2CCc3nc(N)nc(N)c3C2)c(Br)c(OC)c1OC,target,Dihydrofolate reductase,TYPE 2,,IC50,,Cryptosporidium parvum,,2.1 µM
CN(CCc1ccc2c(n1)NCCC2)C(=O)N(C)Cc1ccc(Cl)c(Cl)c1,toxicity,,,,CC50,,,PBMC,4.9 µM
O=C(O)c1cnn2c(C3CCCCC3)c(-c3cc(C(F)(F)F)cc(C(F)(F)F)c3)cnc12,target,RNA-dependent RNA polymerase,,,IC50,,Hepatitis C virus,,>10 µM
Fc1ccc(N2CCCCC2)c(NC(=S)c2ccncc2)c1,host protein,GRK5,,10 µM,inhibition,kinase activity,,,2%
CN(C)C(=O)c1cnn2c(C3CCCCC3)c(-c3ccc(OCc4ccccc4)cc3)cnc12,target,RNA-dependent RNA polymerase,,,IC50,,Hepatitis C virus,,>10 µM
CCOC(=O)CCCCCOc1cccc(CN(C(=O)c2ccc(-c3cc(C(F)(F)F)cc(C(F)(F)F)c3)cc2)C(C)C)c1,toxicity,,,,CC50,,,HEK 293,>20 µM
COc1ccc2c(c1OC)Cc1nc(N)nc(N)c1-2,target,Dihydrofolate reductase,TYPE 1,,IC50,,Cryptosporidium parvum,,>10 µM
O=C(NCCc1ccc2c(n1)NCCC2)Nc1ccc(F)c(C(F)(F)F)c1,toxicity,,,,CC50,,,PBMC,2.4 µM
Nc1ccc(S(=O)(=O)[O-])c2c(S(=O)(=O)[O-])ccc(O)c12,culture,,TYPE 3,10 µg/mL,inhibition,cytopathic effect,Adenovirus,Human embryonic lung cells,20%
CC(C)N(Cc1cccc(OCCCCCC(=O)OC(=O)O)c1)C(=O)c1ccc(-c2cccc(N(C)C)c2)cc1,toxicity,,,,CC50,,,RAJI,>20 µM
O=C(NCCc1ccc2c(n1)NCCC2)Nc1cccc2[nH]ccc12,toxicity,,,,CC50,,,PBMC,2.1 µM
CCCN(Cc1cccc(OCCCCCC(=O)O)c1)C(=O)c1ccc(-c2ccc3c(c2)OCO3)cc1,toxicity,,,,CC50,,,BJ,>20 µM
C=CCc1ccc(OC)c(OC)c1,culture,,2642,,MIC90,turbidity,Candida albicans,,340 µg/mL
O=C(O)c1cc2nc(-c3ccc(OCc4ccccc4)cc3)cc(-c3ccc(Cl)cc3Cl)n2n1,target,RNA-dependent RNA polymerase,,,IC50,,Hepatitis C virus,,>10 µM
O=c1c(-c2ccc(Br)cc2)c(O)c2cccnc2n1O,toxicity,,,,CC50,,,HeLa,<100 µM
COc1cc(Cc2sc3nc(N)nc(N)c3c2C)c(Br)c(OC)c1OC,target,Dihydrofolate reductase,TYPE 1,,IC50,,Cryptosporidium parvum,,0.78 µM
CC(C)=CCN1Cc2cccc3[nH]c(=S)n(c23)C[C@@H]1C,host protein,DNA polymerase beta,,,IC50,,Human,,>175 µM
Cc1cccc(NC(=O)NCC2CCc3ccccc3N2)c1,toxicity,,,,CC50,,,PBMC,50 µM
COc1cccc(-c2cc(-c3cc(F)cc(OC)c3)n3nc(C(=O)O)cc3n2)c1,target,RNA-dependent RNA polymerase,,,IC50,,Hepatitis C virus,,>10 µM
O=S(=O)([O-])c1ccccc1S(=O)(=O)[O-],culture,,TYPE 3,10 µg/mL,inhibition,cytopathic effect,Adenovirus,Human embryonic lung cells,0%
NCc1cccc(-c2cccc(Cc3ccnc4c3c(O)cc(=O)n4O)c2)c1,toxicity,,,,CC50,,,HeLa,<100 µM
O=S(=O)(O)c1cc(O)c2c(O)c(N=Nc3ccccc3)c(S(=O)(=O)O)cc2c1,culture,,TYPE 3,50 µg/mL,inhibition,cytopathic effect,Adenovirus,Human amnion AV3 cells,20%
COc1cccc2c1CCc1nc(N)nc(N)c1-2,target,Dihydrofolate reductase,TYPE 2,,IC50,,Cryptosporidium parvum,,0.72 µM
O=C(O)c1cc2nc(-c3ccc(OCc4ccccc4)cc3)c(Cc3ccccc3)c(=O)n2[nH]1,target,RNA-dependent RNA polymerase,,,IC50,,Hepatitis C virus,,1–10 µM
Cc1ccccc1CC1CCc2nc(N)nc(N)c2C1,target,Dihydrofolate reductase,TYPE 2,,IC50,,Cryptosporidium parvum,,0.15 µM
O=C(NCCc1ccc2c(n1)NCCC2)NCc1ccc(Cl)c(F)c1,toxicity,,,,CC50,,,PBMC,50 µM
O=c1cc(-c2cncnc2)c2cccnc2n1O,toxicity,,,,CC50,,,HeLa,<100 µM
CCOC(=O)CCCCCOc1cccc(CN(C(=O)c2ccc(-c3cccc(-c4ccccc4)c3)cc2)C(C)C)c1,toxicity,,,,CC50,,,HEK 293,>20 µM

Again, the opening 5 rows:

structure,kind,protein,strain or isolate,tested at,endpoint,method,organism,cell line,value
O=C(NCCc1ccc2c(n1)NCCC2)Nc1ccc(Cl)nc1,toxicity,,,,CC50,,,PBMC,0.09 µM
CCC(CC)O[C@@H]1C=C(C(=O)O)C[C@H](N)[C@H]1NC(C)=O,culture,,B/LEE/40,,EC50,,Influenza B virus,MDCK,3 µM
Nc1nc(N)c2nc(Cc3ccc4ccccc4c3)c(Cc3ccc4ccccc4c3)nc2n1,target,Dihydrofolate reductase,TYPE 2,,IC50,,Cryptosporidium parvum,,>10 µM
COc1ccc(C)cc1OCCBr,toxicity,,,,CC50,,,HEK 293,>20 µM
N#CNC(=O)c1cnn2c(C3CCCCC3)c(-c3ccc(OCc4ccccc4)cc3)cnc12,target,RNA-dependent RNA polymerase,,,IC50,,Hepatitis C virus,,<1 µM

ECn is the concentration giving n% inhibition of infection, replication or growth. Two numbers with a dash give a range or band. MIC50, MIC90 and the like: level of inhibition, or share of isolates inhibited. Inhibition is in % at the dose shown (toxicity tests: loss of growth or viability). CCn is the concentration with n% toxicity to the cells. Rows are shuffled and stem from different studies. ICn: concentration for n% inhibition.